According to ChEMBL document CHEMBL5108080 (J Med Chem, 2022):

Test system: Influenza A virus
Assay: Antiviral activity against group 2 influenza A virus LPAI H7N7 (A/Netherlands/219/2003) infected in human A549 cells assessed as inhibition of viral entry preincubated with compound for 30 mins followed by viral infection for 1 hour further incubated for 48 hrs with replacement of fresh medium containing compound
Details: strain LPAI H7N7 (A/Netherlands/219/2003)

## c1ccc(-c2nc3ncccn3c2NC2CCCCC2)cc1
  EC50: 250 nM

## Brc1ccc(-c2nc3ncccn3c2NC2CCCCC2)cc1
  EC50: 200 nM
